{
  "source": "paper PMC4094919",
  "about": "“Screening and hit evaluation of a chemical library against blood-stage Plasmodium falciparum” (Malaria Journal, 2014)",
  "data": [
    {"tested_on": "P. falciparum NF54 strain", "assay": "P. falciparum NF54 growth assay, 3H-hypoxanthine incorporation (hit validation)", "format": "cell-based, Plasmodium falciparum", "settings": "Ligand Efficiency Index = pEC50/(MW/1000)", "description": "Synthesized compounds were tested in an alternative assay, in which ^3H-hypoxanthine incorporation was measured in the chloroquine-sensitive strain NF54 (Values were measured in duplicate, 12 points/EC50).\nCultivation of Plasmodium falciparum: Plasmodium falciparum strain NF54 was obtained from the Research and Reference Reagent Resource Center (MR4) (Manassas, VA, USA). The two strains were maintained in vitro by a modification of the method of Trager and Jensen. Cultures were maintained in A positive (A^+) human erythrocytes suspended at 5% hematocrit in complete medium. […] Parasite growth and morphology were observed daily using thin smears at 100X (oil immersion) magnification following staining with Giemsa stain.\nPlasmodium falciparum growth assay: The protocol assesses the compound efficacy against the growth of P. falciparum in vitro.\nAll cultures used in the study are albumax II adopted. […]\nFollowing the incubation period, the plates were harvested with a FilterMate cell harvester (Perkin Elmer) onto unifilter-96 GF/B plates, washed with distilled water to remove excess radiochemical and plates were kept for drying 37°C overnight or 60°C for 1 hr. Fifty µL of Microscint scintillation cocktail (Microscint-High Efficiency LSC-Cocktail; Perkin Elmer) added in the unifilter-96 GF/B plates and kept for 15-20 min. The plates were counted in a Top Count NXT microplate scintillation and luminescence counter (Perkin Elmer). The mean values for [^3H]-hypoxanthine incorporation in parasitized control and non-parasitized control erythrocytes were calculated.\nAssay data were analysed using Graph pad prism ver.5 software. A variable sigmoid dose response curve is plotted keeping log concentrations at X-axis and % inhibition at Y-axis.", "values": [
      {"smiles": "CC(=O)N1CCN(Cc2coc(Cc3ccccc3)n2)CC1", "note": "[Compound 6, 1-(4-((2-benzyloxazol-4-yl)methyl)piperazin-1-yl)ethanone]", "LEI (NF54)": "<16.7"},
      {"smiles": "O=C(c1cccc(-c2noc(CN(CCN3CCCCC3)C(=O)c3ccccc3)n2)c1)N1CCCNCC1", "note": "[Compound 10, N-((3-(3-(1,4-diazepane-1-carbonyl)phenyl)-1,2,4-oxadiazol-5-yl)methyl)-N-(2-(piperidin-1-yl)ethyl)benzamide]", "LEI (NF54)": 14.0},
      {"smiles": "Cc1csc(Sc2ncnc3sccc23)n1", "note": "[Compound 13, 4-((4-methylthiazol-2-yl)thio)thieno[2,3-d]pyrimidine]", "LEI (NF54)": 26.3},
      {"smiles": "COc1ccc2c(c1)C1(Nc3ccccc3-c3nc4ccccc4n31)C(=O)N2", "note": "(stereo not drawn) [Compound 12, 5'-methoxy-5H-spiro[benzo[4,5]imidazo[1,2-c]quinazoline-6,3'-indolin]-2'-one]", "LEI (NF54)": 19.6},
      {"smiles": "Cc1ccc(S(=O)(=O)N2C[C@H](C)N(Cc3ccc(C(=O)NC4CC4)cc3)C[C@@H]2C)cc1", "note": "[Compound 15a]", "LEI (NF54)": 16.7},
      {"smiles": "Cc1c(Cc2c(C)n(Cc3ccccc3C#N)c3ccccc23)c2ccccc2n1Cc1ccccc1C#N", "note": "[Compound 2, 2,2'-((3,3'-methylenebis(2-methyl-1H-indole-3,1-diyl))bis(methylene))dibenzonitrile]", "LEI (NF54)": 12.1},
      {"smiles": "CC(C)(C)CC(=O)N(Cc1ccc(NC(=O)c2ccc(C#N)cc2)cc1)CC(C)(C)CN", "note": "[Compound 3, N-(4-((N-(3-amino-2,2-dimethylpropyl)-3,3-dimethylbutanamido)methyl)phenyl)-4-cyanobenzamide]", "LEI (NF54)": 12.7},
      {"smiles": "O=C(O)[C@H]1Cc2c([nH]c3ccccc23)[C@H](c2ccc(Cl)cc2Cl)N1", "note": "[Compound 14d]", "LEI (NF54)": "<13.8"},
      {"smiles": "O=C(Nc1cc(=O)[nH]c2nc(-c3ccccc3)nn12)C1CCCCC1", "note": "[Compound 7, N-(5-oxo-2-phenyl-4,5-dihydro-[1,2,4]triazolo[1,5-a]pyrimidin-7-yl)cyclohexanecarboxamide]", "LEI (NF54)": 18.8},
      {"smiles": "O=C(O)[C@H]1Cc2c([nH]c3ccccc23)[C@@H](c2ccc(Cl)cc2Cl)N1", "note": "[Compound 14c]", "LEI (NF54)": 14.9},
      {"smiles": "CC(=O)N1c2ccccc2[C@@H](c2ccccc2)[C@@H]1C(=O)O", "note": "(racemic) [Compound 4a, Rac (2R,3R)-1-acetyl-3-phenylindoline-2-carboxylic acid]", "LEI (NF54)": "<17.7"},
      {"smiles": "COc1ccc(NC(=O)c2cnn(-c3ccccc3)c2-c2ccccc2)c(OC)c1", "note": "[Compound 5, N-(2,4-dimethoxyphenyl)-1,5-diphenyl-1H-pyrazole-4-carboxamide]", "LEI (NF54)": 13.5},
      {"smiles": "O=C(NCC(c1ccsc1)N1CCCCCC1)c1ccc(C(F)(F)F)cc1", "note": "(stereo not drawn) [Compound 11, N-(2-(azepan-1-yl)-2-(thiophen-3-yl)ethyl)-4-(trifluoromethyl)benzamide]", "LEI (NF54)": 15.9},
      {"smiles": "Cc1ccc(S(=O)(=O)N2C[C@@H](C)N(Cc3ccc(C(=O)NC4CC4)cc3)C[C@H]2C)cc1", "note": "[Compound 15b]", "LEI (NF54)": 14.0},
      {"smiles": "CCOc1ncccc1C(=O)Nc1cc(C(F)(F)F)ccc1Oc1cccc(OC)c1", "note": "[Compound 9, 2-ethoxy-N-(2-(3-methoxyphenoxy)-5-(trifluoromethyl)phenyl)nicotinamide]", "LEI (NF54)": 15.1},
      {"smiles": "Cc1c(CO)c2ccccc2n1Cc1ccccc1C#N", "note": "[Compound 1, 2-((3-(hydroxymethyl)-2-methyl-1H-indol-1-yl)methyl)benzonitrile]", "LEI (NF54)": 19.2},
      {"smiles": "O=C(O)[C@@H]1Cc2c([nH]c3ccccc23)[C@H](c2ccc(Cl)cc2Cl)N1", "note": "[Compound 14a, (1S,3S)-1-(2,4-dichlorophenyl)-2,3,4,9-tetrahydro-1H-pyrido[3,4-b]indole-3-carboxylic acid]", "LEI (NF54)": "<13.8"},
      {"smiles": "Cc1ccc(S(=O)(=O)N2CCN(Cc3ccc(C(=O)NC4CC4)cc3)CC2)cc1", "note": "[Compound 15c, N-cyclopropyl-4-((4-tosylpiperazin-1-yl)methyl)benzamide]", "LEI (NF54)": 15.2}
    ]}
  ]
}
